Measurements: PMC4204995, “Inhibition of Influenza Virus Replication by Targeting Broad Host Cell Pathways” (PLoS ONE, 2014)

Experiment: in vitro
Details: dog

## COc1cc(NC(C)CCCN)c2ncccc2c1 (stereo not shown) [Primaquine, primaquine diphosphate]
  CC50: 126 ± 80.5 µM
